Compound potency records, mixed from different reports. Data source: NIAID ChemDB in PubChem.

Common to all: growth or infection tests; species: HIV-1

ECn: concentration that inhibits the pathogen or its effect by n%.

structure	measure	read by	strain or isolate	cell line	mutations	value
CC(C)(C)[Si](C)(C)O[C@H]1[C@H](n2cnc3c(N)ncnc32)O[C@H](CO)C12CS(=O)(=O)C=C2N	EC50	p24	IIIB	MT-4	-	>200 µg/mL
Cc1cn([C@H]2O[C@@H](CO)C[C@H]2O)c(=O)[nH]c1=O	EC50	RT activity	-	MT-4	-	>100 µM
CCn1c(C)c(C(=O)OC)c(C(=O)OC)c1Cc1ccccc1	EC50	cytopathic effect / MTT	IIIB	MT-4	-	3.2 µM
CC(C)OC(=O)[C@H](C)NP(=O)(OCC(F)(F)C(F)(F)C(F)(F)Cn1c(=O)cc[nH]c1=O)Oc1ccccc1	EC50	RT activity	LAI	PBMC	-	>100 µM
CC(C)(C)NC(=O)c1ccccc1OC[C@H](O)[C@H](Cc1ccccc1)NC(=O)[C@H](CC(N)=O)NC(=O)c1ccc2ccccc2n1	EC50	cytopathic effect / MTT	IIIB	CEM	-	0.72 µM
N#CC1(CNC(=O)c2c(O)c3ncc(Cc4ccc(F)cc4)c4c3n(c2=O)CC(F)(F)CN4)CC1	EC50	ATP / luminescence	IIIB	MT-2	-	0.0043 µM
Nc1nc2c(ncn2CC(F)(F)C(F)(F)C(F)(F)CO)c(=O)[nH]1	EC50	RT activity	LAI	PBMC	-	>100 µM
O=P(O)(O)OP(=O)(O)OP(=O)(O)O	EC50	cytopathic effect / MTT	IIIB	CEM	-	>100 µg/mL
Nc1nc(NC2CC2)c2ncn([C@H]3C=C[C@@H](CO)C3)c2n1	EC90	p24	XM-AZT-resistant	PBMC	RT-M41L D67N K70R T215Y K219Q	4.5 µM
O=C(C(=O)N1CCN(C(=O)c2ccccc2)CC1)c1c[nH]c2ccccc12	EC50	-	NL4-3	MT-2	-	5.13 µM
Cc1cn(CC(F)(F)C(F)(F)CO)c(=O)[nH]c1=O	EC50	RT activity	LAI	PBMC	-	>100 µM
CCCCCCCCCCCCCCCC(=O)Nc1ccn([C@H]2C[C@H](OP(=O)(O)OC[C@H]3O[C@@H](n4cc(C)c(=O)[nH]c4=O)C[C@@H]3N=[N+]=[N-])[C@@H](CO)O2)c(=O)n1	EC50	cytopathic effect / XTT	-	CEM + CEM-SS	-	1.58 µM
CC1(CO)CCC(Cn2nnc3c(Cl)nc(N)nc32)C1(C)C	EC50	cytopathic effect	-	CEM	-	>0.8 µg/mL
CCN1c2ncc(CCOc3ccc(-c4ccc(C(=O)O)o4)cc3C)cc2C(=O)N(C)c2cccnc21	EC50	p24	IIIB	C8166	-	<0.01 µM
CNC(=O)c1c(O)c2ncc(Cc3ccc(F)cc3)c3c2n(c1=O)CC[C@H](C(C)=O)O3	EC50	ATP / luminescence	IIIB	MT-2	-	0.043 µM
Cc1cn([C@H]2O[C@@H](CO)C[C@@H]2N=[N+]=[N-])c(=O)[nH]c1=O	EC50	RT activity	-	MT-4	-	>100 µM
CC(=O)N1CCC(C(=O)N(CCCN2CCC(Cc3ccc(C(N)=O)cc3)CC2)c2ccc(C)c(Cl)c2)CC1	EC50	p24 / ELISA	-	HEK 293	-	0.00074 µM
Cc1cn([C@@H]2O[C@H](CO)C[C@@H]2F)c(=O)[nH]c1=O	EC50	p24	-	CEM	-	>100 µM
CCCCCCCCCCCCCCCC(=O)Nc1ccn([C@H]2CC[C@@H](COP(=O)(O)O[C@H]3C[C@H](n4cc(C)c(=O)[nH]c4=O)O[C@@H]3CO)O2)c(=O)n1	EC50	cytopathic effect / XTT	OC-resistant RT L100I	CEM + CEM-SS	Oxathiin carboxanilide-resistant RT L100I	0.1471 µM
CCN1c2ncc(CCOc3ccc(-c4ccc(C(=O)O)cc4)c(Cl)c3)cc2C(=O)N(C)c2cccnc21	EC50	p24	-	C8166	RT-K103N Y181C	>0.05 µM
CCOC(=O)CNc1nc(Nc2ccc(OCC)cc2)nc(Oc2cc(=O)oc3ccccc23)n1	EC50	MTT	IIIB	MT-4	-	>62.13 µg/mL
Cc1cc(C)c(-n2nnnc2SCC(=O)Nc2ccc3c(c2)OCO3)c(C)c1	EC50	p24	WT	C8166	-	<0.05 µM
COC(=O)Cc1[nH]cc(-c2ccccc2)c1C(=O)OC	EC50	p24 / ELISA	IIIB	PBL	-	>10 µM
COc1cc2c(cc1Cc1cccc(Cl)c1F)c(=O)c(C(=O)O)cn2[C@H](CO)C(C)C	EC50	luminescence	NL4-3	MT-4	-	0.002 µM
CCOC(=O)[C@H](C)NP(=O)(OCC(F)(F)C(F)(F)Cn1c(=O)cc[nH]c1=O)Oc1ccccc1	EC50	RT activity	LAI	PBMC	-	>100 µM
CC(=O)OC[C@H]1O[C@@H]2Oc3[nH]c(=O)[nH]c(=O)c3S[C@@H]2[C@@H](OC(C)=O)[C@H]1OC(C)=O	EC90	RT activity	LAI	PBMC	-	>100 µM
CC1(C)Oc2ccc3c(=O)cc(NCc4ccncc4)oc3c2[C@@H](OC(=O)C23CC[C@@](C)(C(=O)O2)C3(C)C)[C@H]1OC(=O)C12CC[C@](C)(C(=O)O1)C2(C)C	EC50	luciferase / fluorescence	RTMDR1	TZM-bl	-	21 µM
CCOC(=O)CNc1nc(Nc2ccccc2OC)nc(Oc2cc(=O)oc3ccccc23)n1	EC50	MTT	IIIB	MT-4	-	>72.3 µg/mL
CCN1c2ncc(CCOc3ccc(-c4ccc(CC(=O)O)cc4)cc3)cc2C(=O)N(C)c2cccnc21	EC50	p24	IIIB	C8166	-	0.01–0.05 µM
CCOC(=O)CNc1nc(Nc2ccc(C)cc2)nc(Oc2cc(=O)oc3ccccc23)n1	EC50	MTT	IIIB	MT-4	-	1.07 µg/mL
CCCc1cc(=O)oc2c3c(c4c(c12)OC(C)(C)C=C4)O[C@H](C)C[C@@H]3O	EC50	p24	1018a Clinical isolate	PBMC	-	3.51 µM
Nc1nc(=O)n([C@H]2O[C@@H](CO)[C@H](O)[C@H]2O)cc1F	EC50	cytopathic effect / MTT	LAI	CEM + CEM-SS	-	>100 µM
Cc1cn([C@@H]2O[C@H](CO[Si](C)(C)C(C)(C)C)[C@@H](O)[C@H]2O[Si](C)(C)C(C)(C)C)c(=O)[nH]c1=O	EC50	p24	IIIB	MT-4	-	>1.6 µg/mL
O=C(CSc1nnnn1-c1ccccc1C(F)F)Nc1ccccc1[N+](=O)[O-]	EC50	p24	WT	C8166	-	<0.05 µM
CC(=O)O[C@H]1[C@@H](OC(C)=O)[C@@H](CO[Si](c2ccccc2)(c2ccccc2)C(C)(C)C)O[C@@H](O[C@H]2[C@H](OC(C)=O)[C@H]3Sc4c(n(C)c(=O)n(C)c4=O)O[C@H]3O[C@@H]2CO[Si](c2ccccc2)(c2ccccc2)C(C)(C)C)[C@@H]1OC(C)=O	EC90	RT activity	LAI	PBMC	-	331 µM
CCOC(=O)CNc1nc(Nc2ccc(Cl)cc2)nc(Oc2cc(=O)oc3ccccc23)n1	EC50	MTT	IIIB	MT-4	-	6.86 µg/mL
O=C(CSc1nnnn1-c1cccc2ccccc12)Nc1cccc(Cl)c1Cl	EC50	p24	WT	C8166	-	<0.05 µM
CC1(CO)CCC(Cn2cnc3c(=O)[nH]c(N)nc32)C1(C)C	EC50	cytopathic effect	-	CEM	-	>100 µg/mL
Cc1nccnc1-c1ccc2c(=O)n(-c3ccc(Cl)c4c(NS(C)(=O)=O)nn(C)c34)c(C(Cc3cc(F)cc(F)c3)NC(=O)Cn3nc(C(F)F)c4c3C(F)(F)[C@@H]3C[C@H]43)nc2c1	EC50	luciferase	NL4-3	MT-2	-	0.00056 µM
Nc1nc(=O)n([C@H]2O[C@@H](CO)[C@H](O)[C@@H]2O)cc1F	EC50	cytopathic effect / MTT	IIIB	MT-4	-	>100 µM
CC(=O)OC1=CC(C)(C)Oc2c(CC=C(C)C)cc(O)cc21	EC50	MTT	-	HeLa + C8166	-	78.2 µM
CC(C)(C)NC(=O)c1ccc2ccccc2c1OC[C@@H](O)[C@H](Cc1ccccc1)NC(=O)[C@H](CC(N)=O)NC(=O)c1ccc2ccccc2n1	EC50	cytopathic effect / MTT	IIIB	CEM	-	0.67 µM
CCOC(=O)CNc1nc(Nc2cccc(Cl)c2)nc(Oc2cc(=O)oc3ccccc23)n1	EC50	MTT	IIIB	MT-4	-	>56 µg/mL
Nc1nc(=O)n([C@H]2C=C[C@@H](CO)O2)cc1F	EC50	p24	XM-M184V	MT-4	RT-M184V	<2 µM
CC(C)=CCc1cc(O)cc2c1OC(C)(C)CC2=O	EC50	MTT	-	HeLa + C8166	-	8 µM
Cn1c2c(c(=O)n(C)c1=O)S[C@H]1[C@@H](O2)O[C@H](CO)[C@@H](O)[C@@H]1O	EC50	RT activity	LAI	PBMC	-	>100 µM
Nn1ccnc1	EC50	-	IIIB	-	-	0.2–4 µg/mL
Cc1ccnc2c1NC(=O)c1cccnc1N2C1CC1	EC50	p24 / ELISA	A17	MT-4	K103N/Y181C	>10 µM
CC1=C[C@@H]([C@H]2Oc3cc4c(c5c3[C@H](CC5)[C@@H]2C)CC[C@H]2C(C)(C)O[C@@H]3CC(=O)O[C@@]32C4)OC1=O	EC50	cytopathic effect	IIIB	MT-4	-	~30 µg/mL
CC(=O)O[C@@H]1[C@@H](OC(C)=O)[C@H](C)O[C@@H]2Oc3[nH]c(=O)[nH]c(=O)c3S[C@@H]21	EC90	RT activity	LAI	PBMC	-	100 µM
COc1ccc(CCNc2nc(NC(=O)Nc3ccccc3C)nc(Oc3cc(=O)oc4ccccc34)n2)cc1OC	EC50	MTT	IIIB	MT-4	-	>16.9 µg/mL
CCCCn1c(C)c(C(=O)OC)c(C(=O)OC)c1-c1ccccc1	EC50	p24 / ELISA	IIIB	PBL	-	>1 µM
COc1cc(C)cc2c(-c3c(O)cc(O)c4c3C[C@H](C)N[C@H]4C)cc(-c3cc(-c4c(O)cc(O)c5c4C[C@H](C)N[C@H]5C)c4cc(C)cc(OC)c4c3O)c(O)c12	EC50	-	-	CEM + CEM-SS	-	5.8–9.5 µM
CCN1c2ncc(CCOc3ccc(NC(=O)C4CC4C(=O)O)cc3C)cc2C(=O)N(C)c2cccnc21	EC50	p24	-	C8166	RT-K103N Y181C	>0.05 µM
COC(=O)[C@H](C)NP(=O)(OC[C@@H]1C=C[C@H](n2cc(C)c(=O)[nH]c2=O)O1)Oc1ccc(Br)cc1	EC50	RT activity	IIIB	PBMC	-	0.042 µM
CC1(CO)CCC(Cn2cnc3c(Cl)nc(N)nc32)C1(C)C	EC50	cytopathic effect	-	CEM	-	>4 µg/mL
Cc1cn([C@@H]2O[C@H](CO)[C@@H](N=[N+]=[N-])[C@@H]2F)c(=O)[nH]c1=O	EC50	p24	-	CEM	-	>100 µM
Nc1nc(=O)n([C@@H]2C[C@@H](O)[C@H](CO)O2)cc1F	EC50	cytopathic effect / MTT	LAI	CEM + CEM-SS	-	>100 µM
Cc1cn([C@H]2C=C[C@@H](CO)O2)c(=O)[nH]c1=O	EC50	cytopathic effect	-	MT-4	-	1.2 µM
COc1ccc(CCNc2nc(NC(=S)Nc3cccc(Cl)c3)nc(Oc3cc(=O)oc4ccccc34)n2)cc1OC	EC50	MTT	IIIB	MT-4	-	>16.78 µg/mL
COC(=O)c1c[nH]c(Cc2ccccc2)c1C(=O)OC	EC50	p24 / ELISA	IIIB	PBL	-	>10 µM
Cc1nccn1CCNC(=O)c1c(O)c2ncc(Cc3ccc(F)cc3)c3c2n(c1=O)CC(F)(F)CN3	EC50	ATP / luminescence	IIIB	MT-2	-	0.014 µM
CC(C)(C)c1ccc(-n2nnnc2SCC(=O)Nc2ccccc2Cl)c(Br)c1	EC50	luciferase	RT-K103N Y181C	C8166	1(RT-K103N Y181C)	≥0.1 µM
COC(=O)c1c(C)[nH]c(Cc2ccccc2)c1C(=O)OC	EC50	p24 / ELISA	IIIB	PBL	-	>10 µM
CCOC(=O)CNc1nc(NC(=O)Nc2cccc(Cl)c2)nc(Oc2cc(=O)oc3ccccc23)n1	EC50	MTT	IIIB	MT-4	-	>125 µg/mL
CCOC(=O)c1[nH]c(C)c(C(=O)O)c1C	EC50	p24 / ELISA	IIIB	PBL	-	>10 µM
Cc1cn([C@H]2C[C@H](O[Si](C)(C)C(C)(C)C)[C@@H](CO)O2)c(=O)[nH]c1=O	EC50	p24	IIIB	MT-4	-	>20 µg/mL
N#CCCNC(=O)c1c(O)c2ncc(Cc3ccc(F)cc3)c3c2n(c1=O)CC(CO)(CO)O3	EC50	ATP / luminescence	IIIB	MT-2	-	0.007 µM
O=c1ccn(CC(F)(F)C(F)(F)CO)c(=O)[nH]1	EC50	RT activity	LAI	PBMC	-	>100 µM
COC(=O)[C@H](C)NP(=O)(OC[C@@H]1C=C[C@H](n2cc(C)c(=O)[nH]c2=O)O1)Oc1ccccc1	EC50	p24	IIIB	CEM + CEM TK-	-	0.145 µM

A second listing of 6 rows from above:

structure	measure	read by	strain or isolate	cell line	mutations	value
Nn1ccnc1	EC50	-	IIIB	-	-	0.2–4 µg/mL
CCCCn1c(C)c(C(=O)OC)c(C(=O)OC)c1-c1ccccc1	EC50	p24 / ELISA	IIIB	PBL	-	>1 µM
CNC(=O)c1c(O)c2ncc(Cc3ccc(F)cc3)c3c2n(c1=O)CC[C@H](C(C)=O)O3	EC50	ATP / luminescence	IIIB	MT-2	-	0.043 µM
CC(=O)O[C@H]1[C@@H](OC(C)=O)[C@@H](CO[Si](c2ccccc2)(c2ccccc2)C(C)(C)C)O[C@@H](O[C@H]2[C@H](OC(C)=O)[C@H]3Sc4c(n(C)c(=O)n(C)c4=O)O[C@H]3O[C@@H]2CO[Si](c2ccccc2)(c2ccccc2)C(C)(C)C)[C@@H]1OC(C)=O	EC90	RT activity	LAI	PBMC	-	331 µM
COc1ccc(CCNc2nc(NC(=O)Nc3ccccc3C)nc(Oc3cc(=O)oc4ccccc34)n2)cc1OC	EC50	MTT	IIIB	MT-4	-	>16.9 µg/mL
COC(=O)Cc1[nH]cc(-c2ccccc2)c1C(=O)OC	EC50	p24 / ELISA	IIIB	PBL	-	>10 µM

Two numbers with a dash give a range or band. Rows are shuffled and stem from different studies. An empty or dashed field is not shown.